Data on one molecule can be found in US6806269B1, “2-Amino-benzoxazinones for the treatment of herpes simplex virus” (G. D. Searle & Cop, priority 1999, dated 2004).

The chains behind the UniProt entries cited, without tags or fusion partners. Residues count along the entry.
UniProt P10210, 1-288 limits assumed: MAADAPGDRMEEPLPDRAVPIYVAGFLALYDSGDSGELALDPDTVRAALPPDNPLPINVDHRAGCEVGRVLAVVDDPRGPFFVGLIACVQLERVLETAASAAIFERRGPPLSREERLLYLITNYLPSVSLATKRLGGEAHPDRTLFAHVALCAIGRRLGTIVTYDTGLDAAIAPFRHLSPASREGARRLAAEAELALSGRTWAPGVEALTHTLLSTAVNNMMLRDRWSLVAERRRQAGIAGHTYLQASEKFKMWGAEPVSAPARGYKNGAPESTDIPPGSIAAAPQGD

In assay [1] the target is HSV-1 protease (assemblin) (Human herpesvirus 1, UniProt P10210). Kind of assay: Enzymatic assay for HSV-1 protease (assemblin) inhibition (FP assay / HPLC assay). It counts as biochemical. Particulars: read-out: ENZYME IC50; recombinant HSV-1 protease; 30 minute pre-incubation at room temperature; FP or HPLC format not stated. The method, then: Enzymatic Assay for HSV-1 Protease (Assemblin) Inhibition
Assemblin protease activity was determined using fluorescence polarization (FP). The fluorescent substrate was biotin-gamma-aminobutyrate -[…]-DTAF, based on the HSV-1release cleavage site. […] A change in molecular size of fluorescent substrate molecule, which was increased using avidin as a reaction stop reagent, allowed cleavage to be measured by FP. Potential protease inhibitors were dissolved in DMF and then diluted 5-fold in assay buffer. […] The enzyme was diluted to 21.3 ug/mL in assay buffer (1M NaCitrate, 50 mM NaPhosphate, pH 7.4, 100mM NaCl, 20% glycerol, 2 mM TECP) and 48.5 uL were added to each well. […] The plates were read by a fluorescence polarization plate reader. Inhibitor potency was determined by comparison with incubations lacking inhibitor.
Assays were performed with the peptide substrate H-His-Thr-Tyr-Leu-Gln-Ala-Ser-Glu-Lys-Phe-Lys-Met-Trp-Gly-NH2 (Bachem). This substrate is a HSV-1-amide UL26 Open Reading Frame (242-255) and is derived from the release site of HSV-1 protease. […] The product SEKFMWG was quantified on HPLC using fluorescence detection of tryptophan residue. […]
HSV-1 protease was purified from baculovirus expressing a DNA construction encoding residues 1-288 of HSV-1 UL26 open reading frame and 32 heterologous amino acid. […]

Assay [2] relates to HSV-1. Put plainly: Antiviral assay: plaque reduction assay, HSV-1 in vero cells. Particulars: read-out: ANTIVIRUS EC50; 50% inhibition of HSV-1 plaque formation in vero cells, 3 days. From the text:
These complimentary assays tested the ability of a compound to inhibit the production of new virus and the toxicity of the compound to the host cells. It was important that both assays be performed simultaneously in order to compare the results directly since toxicity may indirectly reduce viral replication.
The antiviral assay was estimated by plaque reduction assay performed by following methods. 1×10^5 of vero cells (African green monkey kidney cell) in 48-well plates were over-night cultured and the medium of this culture was replaced with 200 μl of 2% FBS DMEM containing 2× the desired final cordon of test compounds or no compound as control. The cultures were added 50 μl of 2% FBS DMEM containing with about 50 plaque forming units of HSV-1and next 250 μl of 2% FBS DMEM containing 1% methylcellulose. These infected cultures were incubated at 37° C., 5% CO2 for 3 days until plaques was visible. The cells were fixed and stained simultaneously with 0.025% crystalviolet in 5% formalin solution and plaque were counted. The concentration of test compound which conferred 50% inhibition of plaque formation compared to no compound control was interpolated from the observed data and defined as IC50.

Each structure is given as a SMILES string. The structures given here were assigned with low confidence; some may be wrong.

In general, IC50 refers to the point on the concentration scale where inhibition reaches its midpoint. By EC50 is commonly meant the concentration giving half of the maximal effect.

With `Cc1c(NC(=O)COCc2ccccc2)ccc2nc(N(C(C)C)C(C)C)oc(=O)c12`, in assay [1], the IC50 is 1.5 µM. Besides, the EC50 in assay [2] is 11.2 µM.
